Measured values from several laboratories, pooled; numbers as filed in NIAID ChemDB.

All rows: growth or infection tests; species: Aspergillus clavatus

MIC50, MIC90 and the like: level of inhibition, or share of isolates inhibited. Conditions beyond the fields shown may differ between rows. Blank or dashed fields: not listed here.

structure,strain,endpoint,read by,result
COc1ccccc1Nc1nc2c(sc(=S)n2-c2ccccc2)c(=O)n1-c1ccccc1OC,MTCC 1323,MIC,broth dilution,0.2 µg/mL
Cc1ccc(N2NOC(=O)C2S(=O)(=O)Nc2ccc(-n3c(-c4cccc(Br)c4)nc4ccccc4c3=O)cc2)cc1,MTCC323,MIC,broth dilution,500 µg/mL
Cc1nn(-c2ccccc2)c2c1C(c1ccc(Cl)cc1)c1c(nc(=S)[nH]c1N)O2,MTCC 1323,MIC,,>1000 µg/mL
CCN1CCN(c2nc(Nc3ccc(C(=O)/C=C/c4ccc(OC)c(OC)c4)cc3)nc3ccccc23)CC1,MTCC 1323,MIC,agar / visual reading,3.12 µg/mL
COc1cccc(-c2cc(-c3cc4cc(F)ccc4oc3=O)nc(NS(=O)(=O)c3ccccc3)c2C#N)c1,MTCC 1323,MIC,turbidity,200 µg/mL
O=C(CSc1nnc(-c2ccc(N=Cc3cccs3)cc2)o1)Nc1ccc(Cl)cc1,MTCC 1323,MIC,broth dilution,500 µg/mL
Cc1ccc2nc(NC(=O)CSc3nnc(-c4ccc5ncccc5c4)o3)sc2c1,,MIC,agar,100 µg/mL
CC(=O)Nc1ccc(OCC(=O)N2N=C(c3nc4ccccc4[nH]3)CC2c2ccccc2O)cc1,MTCC 1323,MIC100,,250 µg/mL
O=C(CSc1nnc(-c2ccc3ncccc3c2)o1)Nc1ccccc1,,MIC,agar,100 µg/mL
CC(=O)Nc1ccc(OCC(=O)N2N=C(c3nc4ccccc4[nH]3)CC2c2ccc(Br)cc2)cc1,MTCC 1323,MIC100,,50 µg/mL
O=C(CSc1nnc(-c2ccc(N=Cc3cccs3)cc2)o1)Nc1ccc([N+](=O)[O-])cc1,MTCC 1323,MIC,broth dilution,500 µg/mL
CCCCCCN(CCCCCC)c1ccc(/C=C2/SC(=O)NC2=O)cc1,MTCC 1323,MIC,broth dilution / visual reading,>1000 µg/mL
Cc1ccc(-c2nc3ccccc3c(=O)n2-c2ccc(C(=O)NN3C(=O)/C(=C/c4ccc(N(C)C)cc4)SC3c3ccc(F)cc3)cc2)cc1,MTCC 1323,MIC100,,1000 µg/mL
CN(C)c1ccc(/C=C2/SC(=O)N(CC(=O)Nc3nc4ccc(SC#N)cc4s3)C2=O)cc1,MTCC 1323,MIC,broth dilution / visual reading,500 µg/mL
N#Cc1c(-c2ccc(Cl)cc2)cc(-c2cc3cc(F)ccc3oc2=O)nc1NS(=O)(=O)c1ccccc1,MTCC 1323,MIC,turbidity,1000 µg/mL
Cc1nc(NC(=O)c2ccc(F)cc2)sc1C(=O)N/N=C1/S/C(=C/c2cccc(O)c2)C(=O)N1c1ccccc1,MTCC 1323,MIC50,,250 µg/mL
Cc1nn(-c2ccccc2)c2c1C(c1ccc(O)cc1)c1c(nc(=S)[nH]c1N)O2,MTCC 1323,MIC,,250 µg/mL
O=C(CSc1nnc(-c2ccc3ncccc3c2)o1)Nc1ccc(Cl)cc1,,MIC,agar,50 µg/mL
CCN1CCN(c2nc(NN=C3SCC(=O)N3c3cccc(Cl)c3)nc3ccccc23)CC1,MTCC 1323,MIC,agar / visual reading,200 µg/mL
O=c1c2ccccc2nc(Cc2ccccc2Nc2c(Cl)cccc2Cl)n1NS(=O)(=O)c1ccc(N=Cc2ccccc2[N+](=O)[O-])cc1,,MIC,broth dilution,>1000 µg/mL
O=C(CSc1nnc(-c2ccc(N=Cc3cccs3)cc2)o1)Nc1ccc(F)cc1,MTCC 1323,MIC,broth dilution,1000 µg/mL
Cc1nn(-c2ccccc2)c2c1C(c1cccc([N+](=O)[O-])c1)c1c(nc(=S)[nH]c1N)O2,MTCC 1323,MIC,,1000 µg/mL
CC(=O)Nc1ccc(OCC(=O)N2N=C(c3nc4ccccc4[nH]3)CC2c2ccccc2)cc1,MTCC 1323,MIC100,,500 µg/mL
C[C@H]1[C@H](O)[C@@H](C)/C=C/C=C/C=C/C=C/C=C/C=C/C=C/[C@H](O[C@@H]2O[C@H](C)[C@@H](O)[C@H](N)[C@@H]2O)C[C@@H]2O[C@](O)(C[C@@H](O)C[C@@H](O)CC[C@H](O)[C@@H](O)C[C@@H](O)CC(=O)O[C@H]1C)C[C@H](O)[C@H]2C(=O)O,10058,MIC,broth dilution,0.004 µg/mL
N#Cc1ccc(NC(=O)CSc2nnc(-c3ccc4ncccc4c3)o2)cc1,,MIC,agar,100 µg/mL
Cc1ccc(-c2nc3ccccc3c(=O)n2-c2ccc(C(=O)NN3C(=O)/C(=C/c4ccccc4[N+](=O)[O-])SC3c3ccc(F)cc3)cc2)cc1,MTCC 1323,MIC100,,500 µg/mL
CCN1CCN(c2nc(Nc3ccc(C(=O)/C=C/c4ccco4)cc3)nc3ccccc23)CC1,MTCC 1323,MIC,agar / visual reading,25 µg/mL
N#Cc1c(-c2cccc(O)c2)cc(-c2cc3cc(F)ccc3oc2=O)nc1NS(=O)(=O)c1ccccc1,MTCC 1323,MIC,turbidity,100 µg/mL
N#CSc1ccc2nc(N)sc2c1,MTCC 1323,MIC,broth dilution / visual reading,500 µg/mL
Cc1ccc(-c2nc3ccccc3c(=O)n2-c2ccc(C(=O)NN3C(=O)/C(=C/c4ccc(Br)cc4)SC3c3ccc(F)cc3)cc2)cc1,MTCC 1323,MIC100,,500 µg/mL
CC(=O)Nc1ccc(OCC(=O)N2N=C(c3nc4ccccc4[nH]3)CC2c2cccc(O)c2)cc1,MTCC 1323,MIC100,,500 µg/mL
Cc1nn(-c2ccccc2)c2c1C(c1cccc(Br)c1)C(C#N)=C(N)O2,MTCC 1323,MIC,,250 µg/mL
Clc1nc(NC2CC2)nc(N2CCN(Cc3ccccc3)CC2)n1,MTCC 1323,MIC,agar,100 µg/mL
Cc1nn(-c2ccccc2)c2c1C(c1cccc(Br)c1)c1c(nc(=S)[nH]c1N)O2,MTCC 1323,MIC,,500 µg/mL
O=C(CSc1nnc(-c2ccc(N=Cc3cccs3)cc2)o1)Nc1ccc(Br)cc1,MTCC 1323,MIC,broth dilution,1000 µg/mL
CCCCOc1ccc(-c2csc(NS(=O)(=O)C3C(=O)ONN3c3ccc(C)cc3)n2)cc1,MTCC323,MIC,broth dilution,250 µg/mL
CC1=C(Cl)C(O)=CC(=O)C12Oc1cc(O)c(Cl)c(C)c1C2=O,MTCC 1323,MIC50,,100 µg/mL
O=C(CSc1nnc(-c2ccc(N=Cc3cccs3)cc2)o1)Nc1ccc(Cl)c(Cl)c1,MTCC 1323,MIC,broth dilution,500 µg/mL
Cc1nc(NC(=O)c2ccc(F)cc2)sc1C(=O)N/N=C1/S/C(=C/c2ccccc2)C(=O)N1c1ccccc1,MTCC 1323,MIC50,,250 µg/mL
Cc1ccc(N2NOC(=O)C2S(=O)(=O)Nc2ccc(-n3c(-c4ccccc4Cl)nc4ccccc4c3=O)cc2)cc1,MTCC323,MIC,broth dilution,1000 µg/mL
Cc1nn(-c2ccccc2)c2c1C(c1ccccc1)c1c(nc(=O)[nH]c1N)O2,MTCC 1323,MIC,,>1000 µg/mL
Cc1ccc(-c2nc3ccccc3c(=O)n2-c2ccc(C(=O)NN3C(=O)/C(=C/c4cccc(O)c4)SC3c3ccc(F)cc3)cc2)cc1,MTCC 1323,MIC100,,500 µg/mL
CC(=O)Nc1ccc(OCC(=O)N2N=C(c3nc4ccccc4[nH]3)CC2c2cccc(Cl)c2)cc1,MTCC 1323,MIC100,,100 µg/mL
Cc1nn(-c2ccccc2)c2c1C(c1ccccc1)C(C#N)=C(N)O2,MTCC 1323,MIC,,500 µg/mL
N#Cc1ccc(Nc2nc(Oc3cccc4cccnc34)nc(N3CCCCC3)n2)cc1C(F)(F)F,MTCC 1323,MIC,agar,50 µg/mL
Brc1cc(Br)c2ncnc(NCCNc3nc(NC4CC4)nc(N4CCN(C(c5ccccc5)c5ccccc5)CC4)n3)c2c1,MTCC 1323,MIC,agar,12.5 µg/mL
Cc1nc(NC(=O)c2ccc(F)cc2)sc1C(=O)N/N=C1/S/C(=C/c2ccccc2Cl)C(=O)N1c1ccccc1,MTCC 1323,MIC50,,250 µg/mL
Cc1ccc(/C=C2/SC(=O)N(CC(=O)Nc3nc4ccc(SC#N)cc4s3)C2=O)cc1,MTCC 1323,MIC,broth dilution / visual reading,500 µg/mL
Cc1ccc(-c2nc3ccccc3c(=O)n2-c2ccc(C(=O)NN3C(=O)/C(=C/c4ccc([N+](=O)[O-])cc4)SC3c3ccc(F)cc3)cc2)cc1,MTCC 1323,MIC100,,500 µg/mL
Cc1ccc(NC(=O)CSc2nnc(-c3ccc4ncccc4c3)o2)cc1,,MIC,agar,100 µg/mL
CC(=O)Nc1ccc(OCC(=O)N2N=C(c3nc4ccccc4[nH]3)CC2c2cccc(F)c2)cc1,MTCC 1323,MIC100,,100 µg/mL
CC(C)N1CCN(c2nc(Nc3ccc(C#N)c(C(F)(F)F)c3)nc(Oc3cccc4cccnc34)n2)CC1,MTCC 1323,MIC,agar,50 µg/mL
N#CSc1ccc2nc(NC(=O)CN3C(=O)S/C(=C/c4cccc(Oc5ccccc5)c4)C3=O)sc2c1,MTCC 1323,MIC,broth dilution / visual reading,1000 µg/mL
CCN1CCN(c2nc(Nc3ccc(C(=O)/C=C/c4ccccc4)cc3)nc3ccccc23)CC1,MTCC 1323,MIC,agar / visual reading,400 µg/mL
N#Cc1c(-c2ccccc2)cc(-c2cc3cc(F)ccc3oc2=O)nc1NS(=O)(=O)c1ccccc1,MTCC 1323,MIC,turbidity,500 µg/mL
FC(F)(F)c1cccc(N2CCN(c3nc(Cl)nc(NC4CC4)n3)CC2)c1,MTCC 1323,MIC,agar,50 µg/mL
Cc1nc(NC(=O)c2ccc(F)cc2)sc1C(=O)N/N=C1/S/C(=C/c2ccc(Cl)cc2)C(=O)N1c1ccccc1,MTCC 1323,MIC50,,500 µg/mL
N#Cc1ccc(Nc2nc(Oc3cccc4cccnc34)nc(N3CCN(c4ccccc4)CC3)n2)cc1C(F)(F)F,MTCC 1323,MIC,agar,100 µg/mL
CC(=O)Nc1ccc(OCC(=O)N2N=C(c3nc4ccccc4[nH]3)CC2c2cccc(Br)c2)cc1,MTCC 1323,MIC100,,250 µg/mL
Cc1ccc(-c2nc3ccccc3c(=O)n2-c2ccc(C(=O)NN3C(=O)/C(=C/c4c(Cl)cccc4Cl)SC3c3ccc(F)cc3)cc2)cc1,MTCC 1323,MIC100,,500 µg/mL
COc1cccc(NC(=O)CSc2nnc(-c3ccc(N=Cc4cccs4)cc3)o2)c1,MTCC 1323,MIC,broth dilution,500 µg/mL
CCN1CCN(c2nc(NN=C3SCC(=O)N3c3ccccc3)nc3ccccc23)CC1,MTCC 1323,MIC,agar / visual reading,50 µg/mL

The first 8 rows once more:

structure,strain,endpoint,read by,result
COc1ccccc1Nc1nc2c(sc(=S)n2-c2ccccc2)c(=O)n1-c1ccccc1OC,MTCC 1323,MIC,broth dilution,0.2 µg/mL
Cc1ccc(N2NOC(=O)C2S(=O)(=O)Nc2ccc(-n3c(-c4cccc(Br)c4)nc4ccccc4c3=O)cc2)cc1,MTCC323,MIC,broth dilution,500 µg/mL
Cc1nn(-c2ccccc2)c2c1C(c1ccc(Cl)cc1)c1c(nc(=S)[nH]c1N)O2,MTCC 1323,MIC,,>1000 µg/mL
CCN1CCN(c2nc(Nc3ccc(C(=O)/C=C/c4ccc(OC)c(OC)c4)cc3)nc3ccccc23)CC1,MTCC 1323,MIC,agar / visual reading,3.12 µg/mL
COc1cccc(-c2cc(-c3cc4cc(F)ccc4oc3=O)nc(NS(=O)(=O)c3ccccc3)c2C#N)c1,MTCC 1323,MIC,turbidity,200 µg/mL
O=C(CSc1nnc(-c2ccc(N=Cc3cccs3)cc2)o1)Nc1ccc(Cl)cc1,MTCC 1323,MIC,broth dilution,500 µg/mL
Cc1ccc2nc(NC(=O)CSc3nnc(-c4ccc5ncccc5c4)o3)sc2c1,,MIC,agar,100 µg/mL
CC(=O)Nc1ccc(OCC(=O)N2N=C(c3nc4ccccc4[nH]3)CC2c2ccccc2O)cc1,MTCC 1323,MIC100,,250 µg/mL